{"source": "PubChem BioAssay AID624099 (ICCB-Longwood, 2012)", "assay": "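Host factors E2 relies on to silence an HPV18 LCR reporter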 (primary screen)", "cells": "human C33A cervical carcinoma cells (HPV-negative) stably expressing BPV1 E2 and an HPV18 LCR luciferase reporter", "knock-down reagent": "siRNA pool against human genes, 40 nM", "time to read-out": "72 h", "measured": "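Per-well luciferase luminescence, z-scored on each plate against the plate mean and SD with control wells left out, then averaged across three replicate plates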", "direction": "mean z-score and z-score: higher = stronger reporter signal, weaker E2 silencing", "call rule": "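Mean z ≥ 2 together with z ≥ 2 in two or more of the three replicates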", "note": "Here is a random part of about 21,000 reagents. 497 of them (2.4%) were called active. 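Higher z means weaker E2 silencing; only reporter increases were scored, and knock-downs that hurt cell survival may mask genuine repressor factors.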 Unmarked entries are inactive."}
{"gene symbol": "SELENOV", "mean z-score": 0.41, "z-score, replicate A": 0.46, "z-score, replicate B": 0.25, "z-score, replicate C": 0.51}
{"gene symbol": "PCDH10", "mean z-score": 1.11, "z-score, replicate A": 0.74, "z-score, replicate B": 1.16, "z-score, replicate C": 1.42}
{"gene symbol": "CCDC28A", "mean z-score": 0.47, "z-score, replicate A": 0.05, "z-score, replicate B": 0.46, "z-score, replicate C": 0.91}
{"gene symbol": "SAMM50", "mean z-score": -0.32, "z-score, replicate A": -0.4, "z-score, replicate B": 0, "z-score, replicate C": -0.57}
{"gene symbol": "DSC2", "mean z-score": -1.27, "z-score, replicate A": -1.03, "z-score, replicate B": -1.12, "z-score, replicate C": -1.66}

Continued (2 carried over from the part before).
{"gene symbol": "SAMM50", "mean z-score": -0.32, "z-score, replicate A": -0.4, "z-score, replicate B": 0, "z-score, replicate C": -0.57}
{"gene symbol": "DSC2", "mean z-score": -1.27, "z-score, replicate A": -1.03, "z-score, replicate B": -1.12, "z-score, replicate C": -1.66}
{"gene symbol": "HOMER2", "mean z-score": "2.14 (active)", "z-score, replicate A": 2.28, "z-score, replicate B": 1.98, "z-score, replicate C": 2.15}
{"gene symbol": "TNP1", "mean z-score": 1.14, "z-score, replicate A": 1.16, "z-score, replicate B": 1.15, "z-score, replicate C": 1.1}
{"gene symbol": "PTPA", "mean z-score": 0.5, "z-score, replicate A": 0.47, "z-score, replicate B": 0.52, "z-score, replicate C": 0.5}
{"gene symbol": "NRL", "mean z-score": 0.63, "z-score, replicate A": 0.83, "z-score, replicate B": 0.67, "z-score, replicate C": 0.38}
{"gene symbol": "KLK9", "mean z-score": 1, "z-score, replicate A": 0.74, "z-score, replicate B": 1.15, "z-score, replicate C": 1.11}
{"gene symbol": "ATG7", "mean z-score": 0.81, "z-score, replicate A": 0.69, "z-score, replicate B": 0.73, "z-score, replicate C": 1.02}
{"gene symbol": "ZNF644", "mean z-score": 0.96, "z-score, replicate A": 1.08, "z-score, replicate B": 0.82, "z-score, replicate C": 0.99}
